The nature of the test: solid-phase binding of rHA2 to hemin-coated wells. As for the experimental part:
FIGS. 3a and 3b are graphical representations showing binding of the HA2 domain to the heme moiety. […] The absence of contaminating protein within 90 μg of the hemin preparation and the absence of non-degraded subunits of hemoglobin remaining after proteinase-K treatment was verified by SDS-PAGE (data not shown). […] Data are representative of two separate experiments.
The ligand-binding protein was then detected with MAb VA1, followed by a goat anti-mouse AP conjugate, and developed as already described for ELISA. Bovine hemoglobin was used in these experiments. Deuteroporphyrin 1X 2,4 bisethylene glycol, deuteroporphyrin 1X dihydrochloride, deuteroporphyrin 1X disulfonic acid dihydrochloride, and dipyrroles tested were obtained from Porphyrin Products, Utah, USA.

What is called Kd is the equilibrium constant for the complex coming apart. In the case of “rHA2: recombinant HA2 domain of P. gingivalis RgpA expressed in E. coli as a 6x His-tag fusion”, the Kd (read-out: Kd of rHA2 binding to hemin-coated wells, solid-phase assay) was determined as 16 nM. For the same substance, the “binding to hemin weaker than binding to hemoglobin” value (solid-phase assays) was “approximately 8 fold”.

For the origin of these results see patent US7319086B1, “Method of prophylaxis and treatment and agents useful for same” (priority 1999, dated 2008).
